System: SAP
Assay: SAP bioresponsive degradation assay
Type: biochemical
Conditions: 100 nM SAP, 1 μM substrate, pH 3.3, 37° C., 3 hours

| Substance | Degradation of peptide substrate by SAP |
| --- | --- |
| Pro-arg-arg-ile-sys-val (PRRICV) [LAR-7048] | No degradation |
| val-phe-phe-arg-arg-gln-thr-ala (VFFRRQTA) [LAR-7047] | No degradation |
